Source: the supplement of paper PMC9931576
Human monoclonal antibodies against the spike receptor-binding domain (heavy:light variable regions). IC50 against pseudoviruses bearing the spike of naturally observed variants; lower = stronger; >10 µg/ml means not reached at the top dose. No active / inactive call. The stated detection limit is 0.0005 µg/ml; values near or below 0.001 µg/ml lie at the floor of the assay.

B1: BD55-6635 (protein)
chain 1: EERLVQSGAELKKPGESLRISCQASGYRFRNFWITWVRQMPGKGLEWMGRMDPTDSYSKYSPSFQGHVTFSADTSISTAYLQWSSLKASDTATYYCARQLCGGDCPIDFWGPGTLVTVSS
chain 2: DIQMTQSPSSVSASVGDRVTITCRASQDIREYLAWFQQKPGQAPYSLIYTASSLHSGVPLRFSGSGSGTDFTLTISSLQPEDFATYYCQQYATNPPTFGPGTKVEVK
B2: BD55-6634 (protein)
chain 1: QVQLVQSGAEVKKPGSSVKVSCKASGDTFDTKTFNWVRQAPGQGLEWMGRIIPTLGRTDYAQKFQGRVTITADTSTSTAYMELSSLRSEDTAVYYCARVNTEWQRSFDFWGQGTLITVSS
chain 2: DIVMTQSPLSLPVTPGEPASISCRSSQSLLHTNGHNYLDWYLQKPGQSPRLLIYLGSYRASGVPDRFSGSGSGTYFTLKISRVEAEDLGVYFCMQGLQSYTFGQGTKLEI
B3: BD55-6650 (protein)
chain 1: EGQLVESGGGLVKPGRSLRLSCKGSGITFGDYAMSWFRQAPGKGLEWVGFIRGKAYGETTEYAASVRGRFTISRDDSESIAYLQMNSLKAEDTAVYYCSREGTFSYYYYYAMDVWGQGTTVTVSS
chain 2: DIQMTQSPSSLSASVGDRVTITCRASQTISYYVNWYQQKPGKPPKLLIYAASSLQSGVPSRFSGSGSGTDFTLTINSLQPEDFATYYCQQSYSIPITFGQGTPLEIK
B4: BD55-6623 (protein)
chain 1: EVQLVESGGGLVQPGRSLRLSCAASGFIFGDYGMHWVRQGPGKGLEWVSGISWNGGVKDYADSVKGRFTISRDNAKNSLYLQMNSLRIEDSALYYCARDPFSWGGIASAGVDYWGHGALVTVSS
chain 2: NFMLTQPHSVSESPGKTVTISCTRSSGSIASNNVQWYQQRPGSSPTTVIYEDKKRPSGVPDRFSGFVDRSSNSASLSISGLKTEDEADYYCQSYDTSSNHGAWVFGGGTKLTVL
B5: BD55-1275 (protein)
chain 1: QVQLVQSGAEVKKPGASVKVSCKASGYSFSSYYVHWVRQAPGQGLEWMGLINPSGASTRYAQKFQGTVTMTRDTSTSTVFMELSSLRSEDTAIYYCARAKIVPATDYFDYWGQGTLVTVSS
chain 2: SYVLTQPPSVSVAPGQTARITCGANNIGSKNVHWYQQKPGQAPVLVVFDDSDRPSGIPERFSGSNSGNTATLTISRVEAGDEADYYCHLWDGSSVPLYVFGTGTKVTVL
B6: BD55-6639 (protein)
chain 1: QLRLQESGPGLVKPSETLSLTCTVSGGSINSRTYYWGWIRQPPGKGLEWIGSIHSGGNTFFNSSLESRLTISVDTSKNQFSLKLTSVTAADTAVYYCAREGLGRVSFSYFGLDVWGQGTTVIVSS
chain 2: DIVMTQSPLSLPVTPGEPASISCRSSQSLLHSNGFNYLDWYLQKPGQSPQLLIYLASNRASGVPDRFSGSGSGTDFTLKISRVEADDVGIYYCMQALKAPTFGQGTRLEIK
B7: BD55-6624 (protein)
chain 1: QVQLVESGGGVVQPGKSLRLSCTASGLTFRHYGFHWVRQAPGKGLEWVAVISYDGNDKYYAVSVKGRFTISRDDSKSTLYLQMNNLRPEDTAMYYCAKIDSPYCSASHCYSAVVDYWGQGTLVTVSS
chain 2: DIQMTQSPSSLSASVGDRVTITCRASQTINTFLNWYQQRPGKAPKLLIYSASTLQSGVSSRFSGSGSGTDFTLTITSLQPEDFATFYCQQSYSPPFTFGPGTKVDV
B8: BD55-6651 (protein)
chain 1: EVQLVESGGGLVQPGGSLRLSCAASGFSFSSFYIHWVRQAPGKGLEYVSAISSDGGNAYYANSVKDRFTISRDNSKNTVYLQLGSLRPEDTAVYFCARDLEYSAWRGSGMGVWGLGTTVTVSS
chain 2: QSVLTQPPSVSGAPGQRVTISCTGSSSNLGAGYGVHWYQQLRGTAPKLLIYGNSNRPSGVPDRFSGSKSGTSASLAITGLQAEDEADYYCQSYDSSLSGHVIFGGGTKVTVL
B9: BD55-6647 (protein)
chain 1: QVQLVQSGAEVKKPGSSVKVSCKASGGTFSSNAISWVRQAPGQGLDWLGRIIPIFGTSSYAQKFQGRVTMTADESTGTAYMELSGLTSEDTAVYYCGRAGVLGGAGSYYIVDYWGQGSLVTVSS
chain 2: NFVLTQPHSVSGSPGKTVTISCTRSSGSIDSDYVQWYQQRPGSAPTTVIFEHSQTPSGVPDRFSGSIDTSSNSASLTVSGLKTEDEADYYCQSYDSGTQAWVFGGGTKLTVL
B10: BD55-6633 (protein)
chain 1: EVQLLQSGAEVKKPGESLTISCKGSGYTFTSYWIGWVRQMPGKGLEFMGRIDPSDSYADYSPSFQGHVSISADRSSSTAYLQWSGLKASDTAMYYCATTTKGGYGSREMYGVDVWGQGTTVIVSS
chain 2: DIQVTQSPSSVSASVGDRVTISCRASQGISSWLAWYQQKPGKAPKLLIYAASSLQIGVPSRFSGSGSGTDFTLTISSLQPEDFATYYCQQAKSFPYTFGQGTKLEIK
B11: BD55-6645 (protein)
chain 1: EVQLVESGGGLVQPGGSLRLACSASGFIFSKYPMHWVRQAPGKGLEYVSGISSDGGLPDYADSVKGRFTISRDNSKNTLYLRVSSLRPEDTAVYYCVKDQLARESIMAVLDFWGQGTLVTVSS
chain 2: DIQMTQAPSSLSASVGDRVTITCRASQSIRNYLNWYQHKPGTAPKVLISAASSLQSGVPSRFTGSGSGTDFTLTISSLQPEDFATYYCQQSYTNPLTFGGGTKVEMK
B12: BD55-6657 (protein)
chain 1: QEQLVESGGGVVQPGRSLRLSCSASGFTFNDFGMHWVRQAPGKGLEWVAFISFDGGAKNYADSVKGRFTISRDNSRNALSLQINSVRIEDTAVYYCAKEEGIMGYYYYYMDVWGKGTAVTVSS
chain 2: QTVVTQEPSFSVSPGGTVTLTCGLSSGSVSTYHYPSWYQQTPGQAPRPLIYRTNTRSSGVPDRFSGSILGNKAALTITGAQADDESDYYCALCIGSGIFVFGSGTKVTVL

The binders below were run against SARS-CoV-2 Omicron BA.1 spike pseudovirus (assay: pseudovirus neutralization IC50; higher = weaker neutralization).
Experimental: (§1)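 Single-round VSV luciferase pseudovirus mixed with antibody dilutions for 1 h and put on Huh-7 cells for about a day; IC50 from the dose curve.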

Binder | pseudovirus neutralization IC50 [µg/mL]
B1 | > 10
B2 | > 10
B3 | > 10
B4 | 3.13
B5 | > 10
B6 | > 10
B7 | > 10
B8 | > 10
B9 | > 10
B10 | > 10
B11 | > 10
B12 | > 10

Each binder was assayed against SARS-CoV-2 Omicron BA.2 spike pseudovirus in the same assay as above.
Experimental: as §1

Binder | pseudovirus neutralization IC50 [µg/mL]
B1 | > 10
B2 | > 10
B3 | > 10
B4 | > 10
B5 | > 10
B6 | > 10
B7 | > 10
B8 | > 10
B9 | > 10
B10 | > 10
B11 | > 10
B12 | > 10

These binders were tested against SARS-CoV-2 Omicron BA.2.75 spike pseudovirus in the same assay as above.
Experimental: as §1

Binder | pseudovirus neutralization IC50 [µg/mL]
B1 | > 10
B2 | > 10
B3 | > 10
B4 | > 10
B5 | > 10
B6 | > 10
B7 | > 10
B8 | > 10
B9 | > 10
B10 | > 10
B11 | > 10
B12 | > 10

These binders were tested against SARS-CoV-2 Omicron BA.5 spike pseudovirus in the same assay as above.
Experimental: as §1

Binder | pseudovirus neutralization IC50 [µg/mL]
B1 | > 10
B2 | > 10
B3 | > 10
B4 | > 10
B5 | > 10
B6 | > 10
B7 | > 10
B8 | > 10
B9 | > 10
B10 | > 10
B11 | > 10
B12 | > 10

What follows are binders tested against SARS-CoV-2 Omicron BQ.1.1 spike pseudovirus in the same assay as above.
Experimental: as §1

Binder | pseudovirus neutralization IC50 [µg/mL]
B1 | > 10
B2 | > 10
B3 | > 10
B4 | > 10
B5 | > 10
B6 | > 10
B7 | > 10
B8 | > 10
B9 | > 10
B10 | > 10
B11 | > 10
B12 | > 10

The binders below were run against SARS-CoV-2 Omicron XBB spike pseudovirus in the same assay as above.
Experimental: as §1

Binder | pseudovirus neutralization IC50 [µg/mL]
B1 | > 10
B2 | > 10
B3 | > 10
B4 | > 10
B5 | > 10
B6 | > 10
B7 | > 10
B8 | > 10
B9 | > 10
B10 | > 10
B11 | > 10
B12 | > 10

These binders were tested against SARS-CoV-2 early D614G spike pseudovirus in the same assay as above.
Experimental: as §1

Binder | pseudovirus neutralization IC50 [µg/mL]
B1 | > 10
B2 | > 10
B3 | 5.51
B4 | 0.072
B5 | > 10
B6 | > 10
B7 | > 10
B8 | 0.0338
B9 | 0.178
B10 | > 10
B11 | 5.58
B12 | > 10
